Compound potency records, mixed from different reports. Data source: NIAID ChemDB in PubChem.

All rows: growth or infection tests; species: HIV-1; endpoint: fold resistance

Fold resistance has wild type as its base.

SMILES,strain,mutations,cells,read by,value
CCC(=O)Oc1ccc(NC(=O)C2=C(C)OCCS2)cc1C(=O)OC(C)C,Nevirapine-resistant (RT V106A),RT-V106A,CEM,syncytia,>2.22
CCc1c(Sc2cc(C)cc(C)c2)n(COCc2ccccc2)c(=O)[nH]c1=O,IIIB,RT-Y181I,CEM,syncytia,110
COc1ccnc2[nH]cc(C(=O)C(=O)N3CCN(C(=O)c4ccccc4)C[C@H]3C)c12,NL4-3 (gp120 R350K M475I) Recombinant,GP120-R350K M475I,MT-2,RT activity,15.3
CC1=C(C(=O)Nc2cccc(C(=O)OC(C)C)c2)SCCO1,PYR-resistant (RT Y181C),RT-Y181C,CEM,syncytia,>2.5
CCN1C(=O)c2c(O)c(=O)c(C(=O)NCc3ccc(F)c(Cl)c3F)cn2[C@H]2CCO[C@H]21,,G140S/Q148R,MT-2,luminescence,1.9
O=C(NCc1c(F)cc(F)cc1F)c1cn2c(c(O)c1=O)C(=O)N1[C@H]3CC[C@H](C3)O[C@@H]1C2,NL4-3,T97A E138K G140S Q148H,CEM-GXR,GFP,8.2
Nc1nc(NC2CC2)c2ncn([C@H]3C=C[C@@H](CO)C3)c2n1,XM-Q151M,RT-A62V V75I F77C F116Y Q151M,PBMC,p24,0.7
CCN1c2ncc(CCOc3ccc4cc(C(=O)NC(C)(C)C(=O)O)ccc4c3)cc2C(=O)N(C)c2cccnc21,,RT-K103N Y181C,C8166,p24,1–10
C[C@H]1CO[C@@H]2Cn3cc(C(=O)NCc4ccc(F)cc4F)c(=O)c(O)c3C(=O)N12,NL4-3,M50I,CBMC,RT activity,0.9
Cc1occc1C(=S)Nc1ccc(Cl)c(/C=N/OC(C)(C)C)c1,NL4-3,RT-V108I,CEM + CEM-SS,cytopathic effect / XTT,2.5
Cc1cc(-n2c(C)nnc2SCC(=O)Nc2ccccc2Br)c2ccccc2c1C,NL4-3,RT-Y188L,HeLa + HeLa-JC53,luciferase,194
Nc1ncnc2c1ncn2[C@H]1C=C[C@@H](OCP(=O)(O)O)O1,,RT-K65R,MT-2,cytopathic effect,2.9
CCOCn1c(Cc2ccccc2)c(CC)c(=O)[nH]c1=O,IIIB,RT-Y181C,CEM,syncytia,75
COc1cc2c(cc1Cc1cccc(Cl)c1F)c(=O)c(C(=O)O)cn2[C@H](CO)C(C)C,NL4-3,T97A E138K G140S Q148H,CEM-GXR,GFP,>1000
Cc1cc(NS(=O)(=O)CC2CCCCC2)c(C)c(C(OC(C)(C)C)C(=O)O)c1-c1ccc2c(c1)CCCO2,NL4-3,PI-resistant ARP-4595 (M46I/L63P/V82T/I84V),MT-4,luminescence,1
Cc1occc1C(=S)Nc1ccc(Cl)c(C(=O)OC(C)C)c1,NL4-3,RT-A98G,CEM + CEM-SS,cytopathic effect / XTT,1
CCc1c(Sc2ccccc2)n(COCc2ccccc2)c(=S)[nH]c1=O,IIIB,RT-Y181C,CEM,syncytia,130
Cc1cc2c(C)cccc2c(-n2c(C)nnc2SCC(=O)Nc2ccccc2Br)c1C,NL4-3,RT-Y188L,HeLa + HeLa-JC53,luciferase,200
O=C1Nc2ccc(Cl)cc2[C@@](C#CC2CC2)(C(F)(F)F)N1,,RT-Y188L,,,51.6
CCN1c2ncc(CCOc3ccc(-c4ccc[n+]([O-])c4)cc3C)cc2C(=O)N(C)c2cccnc21,,RT-K103N Y181C,C8166,p24,1
O=C(O[C@@H]1[C@H](OC(=O)c2ccccc2)[C@@H](CO)O[C@H]1n1cnc2c(N(C(=O)c3ccccc3)C(=O)c3ccccc3)ncnc21)c1ccccc1,NL4-3,M184V,HeLaP4,β-galactosidase,0.99
CCN1c2ncc(CCOc3ccc(NC(=O)Nc4ccc(C(=O)O)cc4)cc3C)cc2C(=O)N(C)c2cccnc21,,RT-K103N Y181C,C8166,p24,>1
O=C1Nc2ccc(F)c(F)c2[C@@](/C=C/C2CC2)(C(F)(F)F)N1,,RT-K103N,,,11.1
C=C(C)[C@@H]1CC[C@]2(C(=O)NCCCCCCCC(=O)N[C@@H](CC(C)C)[C@@H](O)CC(=O)O)CC[C@]3(C)[C@H](CC[C@@H]4[C@@]5(C)CC[C@H](O)C(C)(C)[C@@H]5CC[C@]43C)[C@@H]12,LAI,GP41-K106R,HeLa P4 + HeLa,syncytia,~1
Cc1ccc(-n2c(C)nnc2SCC(=O)Nc2ccc(Oc3ccccc3)cc2)cc1,NL4-3,RT-K103N Y181C,HeLa + HeLa-JC53,luciferase,>9.1
CN(C)C1=C(C#N)/C(=C2/C(C#N)=C(N(C)C)N(c3ccc([N+](=O)[O-])cc3)c3c2n(C)c2ccccc32)c2c(c3ccccc3n2C)N1c1ccc([N+](=O)[O-])cc1,Diphenyl sulfone-resistant (RT-Y181I),RT-Y181I,CEM + CEM-SS,cytopathic effect / XTT,0.608
O=C1Nc2ccc(Cl)cc2[C@@](C#CC2CC2)(C(F)(F)F)O1,,V106A,MT-4,,3
CCN1c2ncc(CCOc3ccc(-c4ccccc4)cc3)cc2C(=O)N(C)c2cccnc21,,RT-K103N Y181C,C8166,p24,>5
CC(C)=CCOc1cc(NC(=S)c2ccsc2C)ccc1Cl,Oxathiin carboxanilide-resistant RT L100I,RT-L100I,CEM + CEM-SS,cytopathic effect / XTT,37.5
CCN1c2ncc(CCOc3ccc(-c4ccc(CC(=O)O)cc4)cc3C)cc2C(=O)Nc2c(C)ccnc21,,RT-K103N Y181C,C8166,p24,1
Cc1ccsc1C(=S)Nc1ccc(Cl)c(/C=N/OC(C)(C)C)c1,CALO(RT-T139I),RT-T139I,CEM + CEM-SS,cytopathic effect / XTT,2
CCN1c2ncc(CCOc3ccc(C4CC4C(=O)O)c4ccccc34)cc2C(=O)N(C)c2ccc(F)nc21,,RT-K103N Y181C,C8166,p24,1–10
Cc1c(OCC2CCC2)c2cc(F)ccc2[nH]c1=O,NNRTI-resistant (RT V106A),RT-V106A,HeLa + HeLa-MAGI,β-galactosidase,>3.28
Cc1nnc(SCC(=O)Nc2ccc(S(N)(=O)=O)cc2Cl)n1-c1ccc(N(C)C)c2ccccc12,NL4-3,RT-Y188L,HeLa + HeLa-JC53,luciferase,176
CN1CCN(C(=O)c2ccc3c(=O)c4ccccc4[nH]c3c2)CC1,Nevirapine-resistant (RT V106A),RT-V106A,CEM,syncytia,92.9
Cc1cc(S(N)(=O)=O)ccc1NC(=O)COc1ccccc1C(=O)c1cc(Cl)cc(C#N)c1,,RT-L100I K103N,HeLa MAGI + HeLa,β-galactosidase,10
CC=CCOc1cc(NC(=S)c2ccoc2C)ccc1OC,4xAZT/L100I(RT-D67N K70R T215Y K219Q L100I),RT-D67N K70R L100I T215Y K219Q,CEM + CEM-SS,cytopathic effect / XTT,23.3
CCN1c2ncc(CCOc3ccc(CCC(=O)O)c4ccccc34)cc2C(=O)Nc2c(C)cc(Cl)nc21,,RT-K103N Y181C,C8166,p24,1–10
CCN1C(=O)c2c(O)c(=O)c(C(=O)NCc3c(F)cc(F)cc3F)cn2[C@H]2COC[C@H]21,,N155H/Q148R,MT-2,luminescence,17.7
Nc1nc(=O)n([C@H]2C=C[C@@H](CO)O2)cc1F,RT-M184V XM-M184V,RT-M184V,PBMC,p24,0.7
CC1=C(C(=O)Nc2cc(C(=O)OC(C)C)c(F)cc2F)SCCO1,PYR-resistant (RT Y181C),RT-Y181C,CEM,syncytia,>11.8
Cc1ccc(-n2c(C)nnc2SCC(=O)Nc2ccc(C)cc2Cl)c(C)c1,NL4-3,RT-K103N Y181C,HeLa + HeLa-JC53,luciferase,600
CCN1c2ncc(CCOc3ccc(-c4cn(C)cn4)cc3C)cc2C(=O)N(C)c2cccnc21,,RT-K103N Y181C,C8166,p24,1
CCN1c2ncc(CCOc3ccc4cc(CC(=O)O)ccc4c3C)cc2C(=O)N(C)c2cccnc21,,RT-K103N Y181C,C8166,p24,1
C[C@@H]1CCO[C@H]2Cn3cc(C(=O)NCc4ccc(F)cc4F)c(=O)c(O)c3C(=O)N12,,V72I,TZM-bl,luciferase / luminescence,1
CC1=C(C(=O)Nc2cc(C(=O)OC(C)C)c(Cl)cc2F)SCCO1,PYR-resistant (RT Y181C),RT-Y181C,CEM,syncytia,>15.4
CC(C)=CCOc1cc(NC(=S)c2ccoc2C)ccc1Cl,3TC-RS (RT-M184I),RT-M184I,CEM + CEM-SS,cytopathic effect / XTT,3
Nc1nc2c(ncn2[C@H]2CO[C@@H](CO)O2)c(=O)[nH]1,,RT-K65R,MT-2,cytopathic effect / XTT,2
C=CCO/N=C/c1cc(NC(=S)c2ccoc2C)ccc1Cl,4xAZT/L100I(RT-D67N K70R T215Y K219Q L100I),RT-D67N K70R L100I T215Y K219Q,CEM + CEM-SS,cytopathic effect / XTT,186
CCN1c2ncc(CCOc3ccc(C(=O)Nc4ccccc4C(=O)O)cc3C)cc2C(=O)N(C)c2cccnc21,,RT-K103N Y181C,C8166,p24,>1
Cc1ccc(-n2c(C)nnc2SCC(=O)Nc2cccc(Cl)c2Cl)cc1,NL4-3,RT-K103N Y181C,HeLa + HeLa-JC53,luciferase,1100
CCN1c2ncc(CCOc3ccc(-c4cc[n+]([O-])cc4)cc3)cc2C(=O)N(C)c2cccnc21,,RT-K103N Y181C,C8166,p24,1
CCOCn1c(Sc2ccccc2)c(C(C)C)c(=O)[nH]c1=S,IIIB,RT-E138K,CEM,syncytia,10
CCN1c2ncc(CCOc3ccc(S(=O)(=O)NCC(=O)O)c4ccccc34)cc2C(=O)N(C)c2cccnc21,,RT-K103N Y181C,C8166,p24,1
CCC(=O)c1ccc(F)c([C@@H]2C[C@@H]2NC(=O)Nc2ccc(C#N)cn2)c1O,LAI,NNRTI-resistant (RT K101P),TZM-bl,β-galactosidase / luminescence,≥100
C[C@@H]1CCO[C@H]2Cn3cc(C(=O)NCc4ccc(F)cc4F)c(=O)c(O)c3C(=O)N12,NL4-3,PI-resistant ARP-11801 (L10F/G16A/L33F/K43T/L63P/A71V/V82A),MT-4,luminescence,1
CCN1c2ncc(CCOc3ccc(CC(=O)O)c4ccccc34)cc2C(=O)N(C)c2ccc(Cl)nc21,,RT-K103N Y181C,C8166,p24,1
Cc1ccc2ccc(C)c(-n3c(SCC(=O)Nc4ccc(S(N)(=O)=O)cc4Cl)nnc3C(F)(F)F)c2c1,NL4-3,RT-Y188L,HeLa + HeLa-JC53,luciferase,8.7
CCN1c2ncc(CCOc3ccc(NC(=O)C4CC4C(=O)O)cc3C)cc2C(=O)N(C)c2cccnc21,,RT-K103N Y181C,C8166,p24,>5
CCOCn1c(Sc2ccccc2)c(C(C)C)c(=O)[nH]c1=O,IIIB,RT-E138K,CEM,syncytia,18
Cc1occc1C(=S)Nc1ccc(Cl)c(C(=O)OCC2CC2)c1,NL4-3,RT-A98G,CEM + CEM-SS,cytopathic effect / XTT,2
C/C=C/CSc1cc(NC(=S)c2ccsc2C)ccc1Cl,NL4-3,RT-Y188C,CEM + CEM-SS,p24,5
Cc1ccc(-n2c(SCC(=O)Nc3ccc(C)cc3Br)nnc2C(F)(F)F)cc1,NL4-3,RT-K103N Y181C,HeLa + HeLa-JC53,luciferase,2200
CCNC(=O)N1CCc2c(OCCc3cnc4c(c3)C(=O)N(C)c3cccnc3N4CC)ccc(C(=O)O)c2C1,,RT-K103N Y181C,C8166,p24,1–10
CCCC1=C(C(=O)Nc2ccc(Cl)c(C(=O)OCC)c2)SCCO1,TIBO-resistant (RT L100I),RT-L100I,CEM,syncytia,3.67
CCN1C(=O)c2c(O)c(=O)c(C(=O)NCc3ccc(F)cc3F)cn2[C@H]2CCOC[C@H]21,,E92Q/N155H,MT-2,luminescence,2.1
CCN1c2ncc(CCOc3ccc(-c4ccc(C(=O)O)cc4)cc3F)cc2C(=O)N(C)c2cccnc21,,RT-K103N Y181C,C8166,p24,>5
CCN1c2ncc(CCOc3ccc(C(C)CC(=O)O)c4ccccc34)cc2C(=O)N(C)c2cccnc21,,RT-K103N Y181C,C8166,p24,1

8 of the rows above, restated:

{"SMILES": "CCN1c2ncc(CCOc3ccc(CCC(=O)O)c4ccccc34)cc2C(=O)Nc2c(C)cc(Cl)nc21", "mutations": "RT-K103N Y181C", "cells": "C8166", "read by": "p24", "value": "1–10"}
{"SMILES": "Cc1ccsc1C(=S)Nc1ccc(Cl)c(/C=N/OC(C)(C)C)c1", "strain": "CALO(RT-T139I)", "mutations": "RT-T139I", "cells": "CEM + CEM-SS", "read by": "cytopathic effect / XTT", "value": "2"}
{"SMILES": "C/C=C/CSc1cc(NC(=S)c2ccsc2C)ccc1Cl", "strain": "NL4-3", "mutations": "RT-Y188C", "cells": "CEM + CEM-SS", "read by": "p24", "value": "5"}
{"SMILES": "CCN1C(=O)c2c(O)c(=O)c(C(=O)NCc3c(F)cc(F)cc3F)cn2[C@H]2COC[C@H]21", "mutations": "N155H/Q148R", "cells": "MT-2", "read by": "luminescence", "value": "17.7"}
{"SMILES": "CCC(=O)c1ccc(F)c([C@@H]2C[C@@H]2NC(=O)Nc2ccc(C#N)cn2)c1O", "strain": "LAI", "mutations": "NNRTI-resistant (RT K101P)", "cells": "TZM-bl", "read by": "β-galactosidase / luminescence", "value": "≥100"}
{"SMILES": "COc1cc2c(cc1Cc1cccc(Cl)c1F)c(=O)c(C(=O)O)cn2[C@H](CO)C(C)C", "strain": "NL4-3", "mutations": "T97A E138K G140S Q148H", "cells": "CEM-GXR", "read by": "GFP", "value": ">1000"}
{"SMILES": "Cc1cc(-n2c(C)nnc2SCC(=O)Nc2ccccc2Br)c2ccccc2c1C", "strain": "NL4-3", "mutations": "RT-Y188L", "cells": "HeLa + HeLa-JC53", "read by": "luciferase", "value": "194"}
{"SMILES": "CC(C)=CCOc1cc(NC(=S)c2ccsc2C)ccc1Cl", "strain": "Oxathiin carboxanilide-resistant RT L100I", "mutations": "RT-L100I", "cells": "CEM + CEM-SS", "read by": "cytopathic effect / XTT", "value": "37.5"}

Blank or dashed fields: not listed here. Conditions beyond the fields shown may differ between rows. a–b is a range or a potency band.